Compound potency records, mixed from different reports. Data source: NIAID ChemDB in PubChem.

All rows: growth or infection tests; species: Candida parapsilosis; endpoint: MIC

Blank or dashed fields: not listed here. Neighbouring rows are from separate reports.

| compound | strain | read by | result |
|---|---|---|---|
| CC1CC(=O)N(c2ccccc2)C1=O | CCC 124-2000 | broth dilution / turbidity | 125 µg/mL |
| Nn1c(SCC(O)(Cn2cncn2)c2ccc(F)cc2F)nnc1-c1ccncc1 | ATCC 22019 | broth dilution | >64 µg/mL |
| Cc1nnsc1C(=O)NNC(=S)Nc1ccccc1Br | ATCC 22019 | agar | 100 µg/mL |
| COc1ccc(N2C(=O)CC(C)C2=O)cc1 | CCC 124-2000 | broth dilution / turbidity | 125 µg/mL |
| COc1ccccc1NC(=S)NNC(=O)c1cc2ccccc2cn1 | ATCC 22019 | agar | 50 µg/mL |
| CN(Cc1ccc(NS(=O)(=O)c2ccccc2)cc1)CC(O)(Cn1cncn1)c1ccc(F)cc1F | CAPA1 | resazurin | 1.2 µg/mL |
| CC1CC(=O)N(c2ccc(Br)cc2)C1=O | CCC 124-2000 | broth dilution / turbidity | 250 µg/mL |
| Cc1nnsc1C(=O)NNC(=S)Nc1ccc([N+](=O)[O-])cc1 | ATCC 22019 | agar | 50 µg/mL |
| Nn1c(SCC(O)(Cn2cncn2)c2ccc(F)cc2F)nnc1-c1cccc(Br)c1 | ATCC 22019 | broth dilution | >64 µg/mL |
| CC1CC(=O)N(c2ccc([N+](=O)[O-])cc2)C1=O | CCC 124-2000 | broth dilution / turbidity | 125 µg/mL |
| O=C(CCn1ccnc1)c1cccc(C(O)c2ccc(Cl)cc2)c1 | RTCC 1018 | broth dilution | 32 µg/mL |
| Cc1ccccc1NC(=S)NNC(=O)c1cc2ccccc2cn1 | ATCC 22019 | agar | 50 µg/mL |
| C[C@@H]1[C@H](O)[C@@H](C)/C=C/C=C/C=C/C=C/C=C/C=C/C=C/[C@H](O[C@@H]2O[C@H](C)[C@@H](O)[C@H](N)[C@@H]2O)C[C@@H]2O[C@](O)(C[C@@H](O)C[C@@H](O)[C@H](O)CC[C@@H](O)C[C@@H](O)CC(=O)O[C@H]1C)C[C@H](O)[C@H]2C(=O)O | ATCC 22019 | MTT | 1.5 µg/mL |
| CN(Cc1ccc(S(=O)(=O)N2CCOCC2)cc1)CC(O)(Cn1cncn1)c1ccc(F)cc1F | CAPA2 | resazurin | 1.1 µg/mL |
| O=C(CCn1ccnc1)c1ccc2ccccc2c1 | RTCC 1018 | broth dilution | 32 µg/mL |
| Cc1ccc(N2C(=O)CC(C)C2=O)cc1 | CCC 124-2000 | broth dilution / turbidity | 250 µg/mL |
| CC(C)S(=O)(=O)Nc1ccc(CN(C)CC(O)(Cn2cncn2)c2ccc(F)cc2F)cc1 | CAPA1 | resazurin | 4.5 µg/mL |
| Cc1ccc(C(O)c2cccc(C(=O)CCn3ccnc3)c2)cc1 | RTCC 1018 | broth dilution | >64 µg/mL |
| CN(Cc1ccc(S(=O)(=O)Nc2ccc([N+](=O)[O-])cc2)cc1)CC(O)(Cn1cncn1)c1ccc(F)cc1F | CAPA1 | resazurin | 0.017 µg/mL |
| C[C@@H]1C(=O)N(c2ccccc2)C(=O)[C@@H]1C | CCC 124-2000 | broth dilution / turbidity | 31.3 µg/mL |
| CCCc1ccc(NS(=O)(=O)c2ccc(CN(C)CC(O)(Cn3cncn3)c3ccc(F)cc3F)cc2)cc1 | CAPA1 | resazurin | 0.12 µg/mL |
| O=C1C(=O)c2ccccc2C2=C1CC(CI)O2 | Clinical isolate | broth dilution | 42.6 µg/mL |
| O=C(CCn1ccnc1)c1ccc(Br)cc1 | RTCC 1018 | broth dilution | 64 µg/mL |
| Nn1c(SCC(O)(Cn2cncn2)c2ccc(Cl)cc2Cl)nnc1-c1ccc(Cl)cc1Cl | ATCC 22019 | broth dilution | 32 µg/mL |
| N=C(N)c1ccc(OCCCCCCOc2ccc(C(=N)N)cc2)cc1 | Cp2 | agar diffusion / agar | 15 µg/mL |
| O=C(CCn1ccnc1)c1ccc(Cl)cc1 | RTCC 1018 | broth dilution | >64 µg/mL |
| CC(C)CC1NC(=O)CC(CCCCCCCCC(C)O)OC(=O)C(CC(C)C)NC(=O)C(CC(C)C)NC(=O)C(CC(C)C)NC(=O)C(C(C)C)NC(=O)C(CC(=O)O)NC(=O)C(CC(C)C)NC1=O | MTCC 1965 | absorbance | 1 µg/mL |
| C[C@@H]([C@H](N)C(=O)N[C@H](C(=O)O)[C@H]1O[C@@H](n2ccc(=O)[nH]c2=O)[C@H](O)[C@@H]1O)[C@H](O)c1ccc(O)cn1 | - | visual reading | >500 µg/mL |
| COc1ccc(-c2nnc(SCC(O)(Cn3cncn3)c3ccc(Cl)cc3Cl)n2N)cc1 | ATCC 22019 | broth dilution | >64 µg/mL |
| C[C@@H]1CC(=O)N(c2ccc(Cl)cc2)C1=O | CCC 124-2000 | broth dilution / turbidity | 125 µg/mL |
| CC(C)(O)c1cn(-c2ccc(Cl)cc2)nn1 | URM 4970 | broth dilution | 128 µg/mL |
| CCCCCCCCCCCCCCCC(=O)NC(CCCCN)C(=O)NC(CCCCN)C(N)=O | 4882 | broth dilution | 0.5 µg/mL |

Repeating the first 4 entries:

compound | strain | read by | result
CC1CC(=O)N(c2ccccc2)C1=O | CCC 124-2000 | broth dilution / turbidity | 125 µg/mL
Nn1c(SCC(O)(Cn2cncn2)c2ccc(F)cc2F)nnc1-c1ccncc1 | ATCC 22019 | broth dilution | >64 µg/mL
Cc1nnsc1C(=O)NNC(=S)Nc1ccccc1Br | ATCC 22019 | agar | 100 µg/mL
COc1ccc(N2C(=O)CC(C)C2=O)cc1 | CCC 124-2000 | broth dilution / turbidity | 125 µg/mL